In US6699656B2, “Treatment and prevention of HIV infection by administration of derivatives of human chorionic gonadotropin” (University of Maryland Biotechnology Institute, priority 1996, dated 2004):
Entries after “also recorded” stand apart in the source; their conditions may differ.

Tested on: HIV-1
Experiment: HIV-1 acute infection in vitro (p24 antigen)
Assay type: cell-based
Conditions: p24 antigen days 3 to 10; peptides 0.05 to 50 nmoles/ml, hCG 0.01 to 1,000 IU, native β-hCG 100 to 1,000 μg
Procedure: Sequences of the peptides are as follows:
HIV-1 infected cells were treated with the above preparations and the virus was measured.

## recombinant α-chain: purified recombinant α-chain of hCG [reference compound]
  inhibition of HIV-1 infection/replication in acutely infected cells: little or no inhibition; also recorded: inactive
